PubChem BioAssay AID624099, ICCB-Longwood, 2012

Aim: 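Human genes that papillomavirus E2 requires to repress the HPV18 LCR promoter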 (primary screen)
Cell system: human C33A cervical carcinoma cells (HPV-negative) stably expressing BPV1 E2 and an HPV18 LCR luciferase reporter
Reagent: siRNA pool against human genes, 40 nM
Time to read-out: 72 h
Measurement: 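Per-well luciferase luminescence, z-scored on each plate against the plate mean and SD with control wells left out, then averaged across three replicate plates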
Scale: mean z-score and z-score: higher = stronger reporter signal, weaker E2 silencing
Active means: 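Mean z ≥ 2 together with z ≥ 2 in two or more of the three replicates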
Shown is one part, drawn at random, of about 21,000 deposited reagents. In the full data, 497 (2.4%) were called active. 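Higher z means weaker E2 silencing; only reporter increases were scored, and knock-downs that hurt cell survival may mask genuine repressor factors.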

| mean z-score | z-score, replicate A | z-score, replicate B | z-score, replicate C | call | target |
| --- | --- | --- | --- | --- | --- |
| 1.22 | 1.65 | 0.66 | 1.34 | inactive | CANX |
| 2.3 | 2.14 | 2.25 | 2.52 | active | PSG7 |
| -0.65 | -1 | -0.57 | -0.36 | inactive | CDK2 |
| 0.38 | 0.52 | 0.14 | 0.49 | inactive | RUNDC3A |
| -0.58 | -0.3 | -1.04 | -0.4 | inactive | MTFP1 |
| 0.73 | 0.43 | 0.57 | 1.18 | inactive | TUBB4A |
| 0.95 | 1.07 | 0.82 | – | inactive | COPRS |
| -0.6 | -0.53 | -0.83 | -0.43 | inactive | NOTCH1 |
| -1.63 | -1.39 | -1.81 | -1.68 | inactive | OPN5 |
| 0.79 | 0.05 | 1.07 | 1.25 | inactive | LOC401191 |
| -0.65 | -1 | -0.47 | -0.48 | inactive | TRIM48 |
| 0.85 | 0.55 | 0.48 | 1.5 | inactive | KANSL2 |
| -0.02 | -0.17 | -0.05 | 0.16 | inactive | PTGES2-DT |
| 0.2 | 0.29 | 0.26 | 0.05 | inactive | ATP5F1E |
| 0.09 | -0.03 | 0.17 | 0.11 | inactive | PLCG1 |
| 0.71 | 0.69 | 0.54 | 0.89 | inactive | CFL2 |
| -0.26 | -0.22 | -0.3 | -0.26 | inactive | LOC440867 (retired record) |
| 0.58 | 0.49 | 0.6 | 0.64 | inactive | DNAAF4 |
| -0.11 | 0.07 | -0.32 | -0.08 | inactive | LOC389372 (retired record) |
| 0.41 | 0.49 | 0.54 | 0.21 | inactive | BAP1 |
| -0.9 | -0.73 | -0.76 | -1.2 | inactive | TRPV3 |
| 0.58 | 0.71 | 0.33 | 0.7 | inactive | CCDC74A |
| 0.78 | 0.77 | 0.73 | 0.85 | inactive | WDR35 |
| -0.54 | -0.72 | -0.54 | -0.36 | inactive | RNF166 |
| -0.87 | -0.99 | -0.66 | -0.96 | inactive | SLC6A8 |
| 1.1 | 0.93 | 1.35 | 1.01 | inactive | FDPS |
| -1.45 | -1.5 | -1.39 | -1.46 | inactive | NWD2 |
| -1.88 | -1.97 | -1.97 | -1.71 | inactive | RPS7 |
| -0.59 | -0.67 | -0.51 | -0.59 | inactive | NOCT |
| -1.58 | -1.01 | -1.88 | -1.83 | inactive | FXR1 |
| 1.47 | 1.06 | 1.7 | 1.64 | inactive | USP17L7 |
| 2.01 | 2.25 | 1.8 | 1.97 | inactive | GPR50 |
| 0.12 | -0.32 | 0.08 | 0.59 | inactive | LOC402697 (retired record) |
| 1.21 | 0.85 | 1.34 | 1.45 | inactive | TMCO1 |
| 0.97 | 1.15 | 1.11 | 0.65 | inactive | EIF2B4 |
| 0.46 | 0.33 | 0.55 | 0.48 | inactive | SRD5A1 |
| 0.27 | 0.21 | 0.28 | 0.33 | inactive | MYCNOS |
| -1.25 | -0.88 | -1.12 | -1.74 | inactive | PASK |
| 0.7 | 0.79 | 0.61 | 0.69 | inactive | NIPBL |
| 0.6 | 0.6 | 0.54 | 0.66 | inactive | RAPGEFL1 |
| 0.51 | 0.82 | 0.36 | 0.34 | inactive | KCNG2 |
| -0.9 | -1.13 | -0.81 | -0.77 | inactive | TGM5 |
| 0.67 | 1.01 | 0.51 | 0.48 | inactive | TMEM106C |
| -0.39 | -0.24 | -0.79 | -0.14 | inactive | SPATA31J1 |
| 1.25 | 1.57 | 1.02 | 1.15 | inactive | GLA |
| 0.17 | 0 | -0.1 | 0.61 | inactive | POPDC2 |
| -0.52 | -0.35 | -0.4 | -0.81 | inactive | PRPF31 |
| -0.25 | -0.1 | -0.27 | -0.39 | inactive | SLC15A1 |
| 0.61 | 0.54 | 0.63 | 0.66 | inactive | ABCC12 |
| 3.73 | 3.96 | 3.81 | 3.44 | active | DLEC1 |
| 2.24 | 2.2 | 2.05 | 2.46 | active | KLHL32 |
| 1.31 | 1.35 | 1.15 | 1.43 | inactive | MAGEC3 |
| -0.69 | -0.9 | -0.77 | -0.41 | inactive | EVA1A |
| -0.1 | 0.02 | -0.01 | -0.32 | inactive | SELENOO |
| -0.62 | -0.43 | -0.71 | -0.72 | inactive | AP1M1 |
| -0.9 | -0.89 | -1 | -0.81 | inactive | EHMT1 |
| -0.82 | -1.09 | -0.85 | -0.52 | inactive | PRDM12 |

Reagents above marked active (3):
| mean z-score | z-score, replicate A | z-score, replicate B | z-score, replicate C | call | target |
| --- | --- | --- | --- | --- | --- |
| 2.3 | 2.14 | 2.25 | 2.52 | active | PSG7 |
| 3.73 | 3.96 | 3.81 | 3.44 | active | DLEC1 |
| 2.24 | 2.2 | 2.05 | 2.46 | active | KLHL32 |
